Read-outs that look alike come from different tables or passages of the source. The match of structure and compound is tentative.
Tests used:
HCV NS3 protease domain = HCV NS3 protease domain (Hepatitis C virus genotype 1b, UniProt Q9WMX2); experiment: HCV NS3 Protease Domain Peptide Cleavage Assay (Enzyme Assay 1), apparent Ki; settings: read-out: Enzyme Assay 1 (HCV NS3 Protease Domain Peptide Cleavage Assay) activity; apparent Ki class
Description: A DNA fragment encoding residues Ala^1-Ser^181 of the HCV NS3 protease (GenBank CAB46913) was obtained by PCR from the HCV Con1 replicon plasmid, I377neo/NS3-3′/wt (re-named as pBR322-HCV-Neo in this study) [V. Lohmann et al., Science, 285, pp. 110-113 (1999)] and inserted into pBEV11 (S. Chamber, et al., personal communication) for expression of the HCV proteins with a C-terminal hexa-histidine tag in E. coli. All constructs were confirmed by sequencing.
The expression constructs for the HCV NS3 serine protease domain was transformed into BL21/DE3 pLysS E. coli cells (Stratagene). Freshly transformed cells were grown at 37° C. in a BHI medium (Difco Laboratories) pplemented with 100 μg/mL carbenicillin and 35 μg/mL chloramphenicol to an optical density of 0.75 at 600 nm. Induction with 1 mM IPTG was performed for four hours at 24° C. The cell paste was harvested by centrifugation and flash frozen at −80° C. prior to protein purification. […]
The SMSY product was separated from substrate and KK4A using a microbore separation method. […] The SMSY product peak was quantitated using the data collected at […].
To evaluate apparent Ki values, all components except the test compound and substrate were pre-incubated for 5-10 minutes at room temperature. […] At the end of the reaction the mixture was quenched, and the extent of reaction was determined as described above. […]

Protein sequences, listed by entry. Tags and fused reporters are not part of them. Lines headed by an entry give the natural chain unless they say otherwise; changes in a name come on top. Chains listed by the source or under a name are the forms on record and can include a tag or linker. Residues count along the entry.
UniProt Q9WMX2, 1027-1207 limits assumed: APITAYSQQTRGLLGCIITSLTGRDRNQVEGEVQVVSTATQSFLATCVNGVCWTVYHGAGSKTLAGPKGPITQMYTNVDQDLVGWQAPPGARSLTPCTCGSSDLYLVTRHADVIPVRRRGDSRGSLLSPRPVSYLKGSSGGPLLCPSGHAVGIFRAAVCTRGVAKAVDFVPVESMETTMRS
UniProt P27958, 1658-1711 partner limits assumed: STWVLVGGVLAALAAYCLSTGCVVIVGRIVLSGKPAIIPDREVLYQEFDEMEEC
UniProt P27958, 1027-1711 with tags or gaps with the stated changes: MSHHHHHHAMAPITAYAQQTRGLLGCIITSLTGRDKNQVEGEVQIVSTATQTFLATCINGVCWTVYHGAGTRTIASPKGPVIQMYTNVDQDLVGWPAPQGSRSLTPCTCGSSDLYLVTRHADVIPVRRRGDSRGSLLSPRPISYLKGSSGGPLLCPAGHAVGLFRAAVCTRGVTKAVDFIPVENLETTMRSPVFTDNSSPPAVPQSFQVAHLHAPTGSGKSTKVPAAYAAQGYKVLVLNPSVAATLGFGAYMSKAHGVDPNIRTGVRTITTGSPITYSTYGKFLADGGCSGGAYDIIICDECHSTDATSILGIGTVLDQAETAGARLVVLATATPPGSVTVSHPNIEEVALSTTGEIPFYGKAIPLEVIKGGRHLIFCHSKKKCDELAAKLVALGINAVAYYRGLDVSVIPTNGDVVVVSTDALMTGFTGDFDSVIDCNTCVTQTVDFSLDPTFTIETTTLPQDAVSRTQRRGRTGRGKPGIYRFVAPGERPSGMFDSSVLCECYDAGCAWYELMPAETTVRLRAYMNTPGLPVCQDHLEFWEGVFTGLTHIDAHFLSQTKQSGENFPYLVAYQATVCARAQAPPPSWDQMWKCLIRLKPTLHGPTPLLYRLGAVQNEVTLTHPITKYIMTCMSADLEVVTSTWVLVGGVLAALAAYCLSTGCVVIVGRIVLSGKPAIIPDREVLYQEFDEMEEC

[1] = target: full-length hepatitis C viral protein NS3•4A (Hepatitis C virus genotype 1a, UniProt P27958); experiment: HCV NS3 Peptide Cleavage Assay (Enzyme Assay 2), apparent Ki
Description: Using standard recombinant DNA techniques, a cDNA fragment encoding the sequence for NS3 and NS4A, residues Ala1027 to Cys1711 from the HCV sub-type strain 1a, containing an N-terminal hexa-histidine sequence, was cloned into the baculoviral transfer vector pVL1392 (Webb N R and Summers M D (1990) Expression of proteins using recombinant baculoviruses, Techniques 2:173-188). […] The transfected insect cells containing recombinant baculovirus clones were subsequently isolated by plaque purification. High-titer clonal baculovirus was routinely used to infect SD insect cells for protein production. In production, Sf9 cells were grown at 27° C. until they reached a density of 2.0×10^6 cells/ml. At this point, the insect cells were infected with virus. After 72 hours or when the cell viability was between 70-80% the culture was harvested and the cells were ready for purification. The NS3•4A protein (SEQ ID NO:1) was purified as follows. Cell paste was thawed in at least five volumes of Lysis Buffer (50 mM Na2HPO4 pH 8.0, 10% Glycerol, 300 mM NaCl, 5 mM β-mercaptoethanol, 0.2 mM PMSF, 2.5 μg/ml Leupeptin, 1.0 μg/mlE64, 2.0 μg/ml Pepstatin) per gram of cell paste. The cell paste was then homogenized on ice using a Dounce homogenizer. The cells were next mechanically disrupted by passing once through a microfluidizer (Microfluidics Corporation, Newton, Mass.), and the cell lysate was collected on ice. The cell lysates was centrifuged at 100,000×g for 30 minutes at 4° C. and the supernatants were decanted. Optionally, the pellets were resuspended in wash buffer (Lysis Buffer+0.1% β-octyl glucopyranoside), homogenized using a Dounce homogenizer and centrifuged at 100,000×g for 30 minutes at 4° C. Insoluble NS3° 4A was extracted from the pellets by resuspending in Extraction Buffer (Lysis Buffer+0.5% lauryl maltoside) using 2.5 ml/g cell paste. The mixture was homogenized using a Dounce homogenizer and mixed at 4° C. for three hours or more. The mixture was centrifuged at 100,000×g for 30 minutes at 4° C. The supernatants were decanted and pooled. The NS3•4A protein was further purified using Nickel-NTA metal affinity chromatography. Imidazole from a 2 M stock, pH 8.0, solution was added to the pooled supernatants so that the final concentration of imidazole was 10 mM. The supernatants were incubated batchwise overnight at 4° C. with Nickel-NTA affinity resin that had been pre-equilibrated with Lysis Buffer+10 mM imidazole. 1 ml of resin per 5 μg of expected NS3-4A was used. The resin was next settled by gravity or by centrifugation at 500×g for five minutes. The resin was next poured into a gravity flow column and washed with 10 or more column volumes of Nickel Wash Buffer (Lysis Buffer+0.1% lauryl maltoside+10 mM imidazole). The column was next eluted with three to four column volumes of Nickel Elution Buffer (Nickel Wash Buffer+300 mM imidazole). The elution fractions were collected on ice and evaluated using SDS-PAGE. To prevent NS3-4A proteolysis, 100 μM DFP protease inhibitor was added to gel samples before adding SDS sample buffer and boiling. The peak fractions were pooled and protein concentration was determined by measuring absorbance at 280 ηm and by dividing by the extinction coefficient (e), which for NS3•4A is 1.01. The NS3•4A was purified further using gel filtration chromatography. A Superdex 200 26/60 column was equilibrated with Superdex Buffer (20 mM HEPES pH 8.0, 10% glycerol, 300 mM NaCl, 10 mM β-mercaptoethanol, 0.05% lauryl maltoside) at a rate of 3 ml/min. The nickel purified NS3•4A was concentrated in a Centriprep 30 to greater than 2 mg/ml, if necessary, and was filtered through a 0.2 μm syringe filter and up to 10 ml was loaded onto the Superdex 200 column. After 0.3 column volumes passed through, 4-5 ml fractions were collected. Fractions were evaluated by SDS-PAGE. NS3•4A protein elutes in two peaks. Peak 1 contains aggregated NS3•4A and peak 2 contains active protein. The fractions of peak 2 were pooled, aliquoted and frozen at −70° C. […]

[2] = read-out: Enzyme Assay 2 (HCV NS3 Peptide Cleavage Assay) activity, apparent Ki class
[3] = read-out: Enzyme Assay 2, HCV NS3 Peptide Cleavage Assay, apparent Ki

Compound	Ki (HCV NS3 protease domain) [nM]	Ki [1, 2] [nM]	Ki [1, 3] [nM]
CCC[C@H](NC(=O)[C@@H]1C[C@]2(CC(c3cccc(Cl)c3)=NO2)CN1C(=O)[C@@H](NC(=O)NCC(F)F)C(C)(C)C)C(=O)C(=O)NC1CC1	< 100	–	–
CCC[C@H](NC(=O)[C@@H]1C[C@]2(CC(c3cccc(Cl)c3)=NO2)CN1C(=O)[C@@H](NC(=O)CC1CC2CCC1C2)C(C)(C)C)C(=O)C(=O)NC1CC1 (stereo partly shown) [Compound 467]	–	< 100	–
CCC[C@H](NC(=O)[C@@H]1C[C@]2(CC(c3cc(C)c(OC)cc3OC)=NO2)CN1C(=O)[C@@H](NC(=O)[C@@H]1C[C@H]1c1ccccc1)C(C)(C)C)C(=O)C(=O)NC	–	–	< 100
CCC[C@H](NC(=O)[C@@H]1C[C@]2(CC(c3cc(C)c(OC)c(C)c3)=NO2)CN1C(=O)[C@@H](NC(=O)CC1CCCCC1)C(C)(C)C)C(=O)C(=O)NC	–	< 100	–
CCC[C@H](NC(=O)[C@@H]1C[C@]2(CC(c3cc(C)c(OCC)c(C)c3)=NO2)CN1C(=O)[C@@H](NC(=O)OC(C)(C)C)C(C)(C)C)C(=O)C(=O)NC	–	–	< 100
CCC[C@@H](NC(=O)[C@@H]1C[C@]2(CC(c3cc(C)c(OC)c(C)c3)=NO2)CN1C(=O)[C@@H](NC(=O)OC1CCCC1)C(C)(C)C)C(=O)C(N)=O	–	100 to 500	–
CNC(=O)C(=O)[C@H](CC1CC1)NC(=O)[C@@H]1C[C@]2(CC(c3cc(Cl)c(OC)cc3OC)=NO2)CN1C(=O)[C@@H](NC(=O)[C@@H]1C[C@H]1c1ccccc1)C(C)(C)C	–	–	< 100
CCC[C@H](NC(=O)[C@@H]1C[C@]2(CC(c3cccc(Cl)c3OC)=NO2)CN1C(=O)[C@@H](NC(=O)OC1CCCC1)C(C)(C)C)C(=O)C(=O)NC1CC1	–	100 to 500	–
CNC(=O)C(=O)C(CC1CC1)NC(=O)C1CC2(CC(c3cc(C)c(OC)c(C)c3)=NO2)CN1C(=O)C(NC(=O)C1CC1c1c[nH]cn1)C(C)(C)C (stereo not shown)	–	–	< 100
CCC[C@H](NC(=O)[C@@H]1C[C@]2(CC(c3cccc(Cl)c3)=NO2)CN1C(=O)[C@@H](NC(=O)CC(C)(C)OC)C(C)(C)C)C(=O)C(=O)NC	–	100 to 500	–
CNC(=O)C(=O)[C@H](CC1CC1)NC(=O)[C@@H]1C[C@]2(CC(c3cccc(Cl)c3)=NO2)CN1C(=O)[C@@H](NC(=O)O[C@@H]1CC2CCC1C2)C(C)(C)C (stereo partly shown)	–	< 100	–
CCC[C@H](NC(=O)[C@@H]1C[C@]2(CC(c3cccc(Cl)c3)=NO2)CN1C(=O)[C@@H](NS(=O)(=O)c1ccc(C)cc1)c1ccccc1)C(=O)C(=O)NC1CC1	100 to 500	100 to 500	–
CCC[C@H](NC(=O)[C@@H]1C[C@]2(CC(c3cc(C)c(OCC)c(C)c3)=NO2)CN1C(=O)[C@@H](NC(=O)OC(C)(C)C)C(C)(C)C)C(=O)C(=O)NC1CC1	–	–	< 100
CCC[C@H](NC(=O)[C@@H]1C[C@]2(CC(c3cc(C)c(OC)c(Cl)c3)=NO2)CN1C(=O)[C@@H](NC(=O)[C@@H]1C[C@H]1c1ccccc1)C(C)(C)C)C(=O)C(=O)NC1CC1	–	–	< 100
CCC[C@H](NC(=O)[C@@H]1C[C@]2(CC(c3cccc(Cl)c3)=NO2)CN1C(=O)[C@@H](NC(=O)C1(CC)COC1)C(C)(C)C)C(=O)C(=O)NC1CC1	–	–	100 to 500
CCOc1c(C)cc(C2=NO[C@]3(C2)C[C@@H](C(=O)N[C@@H](CC2CC2)C(=O)C(N)=O)N(C(=O)[C@@H](NC(=O)OC2CCCC2)C(C)(C)C)C3)cc1C	–	–	< 100
CNC(=O)C(=O)[C@H](CC1CC1)NC(=O)[C@@H]1C[C@]2(CC(c3cc(C)c(OC)c(C)c3)=NO2)CN1C(=O)[C@@H](NC(=O)[C@@H]1C[C@H]1c1ccccc1)C(C)(C)OC	–	–	< 100
CCC[C@H](NC(=O)[C@@H]1C[C@]2(CC(c3cc(C)c(OCC)c(C)c3)=NO2)CN1C(=O)[C@@H](NC(=O)CC1CCCCC1)C(C)(C)C)C(=O)C(=O)NC	–	–	< 100

Source: patent US7964624B1, “Inhibitors of serine proteases” (priority 2005, dated 2011)
